Data on 1 substance can be found in patent US12535491B2, “Vaccine comprising protein-targeted (PT) extracellular DNA isolated from bacterial matrix” (priority 2018, dated 2026).

The data set concerns Human Herpes Virus 8. Nature of the data set: Immunostaining of Kaposi's sarcoma tissue sections with antibodies to gp160 or its PrDs region. The settings on record: primary antibody dilution 1:1000.

gp160: the “Immunostaining, HHV-8 negative” value is 20% and the “Immunostaining, HHV-8 positive” value was 80%.
